Laboratory results published in the supplement of paper PMC9931576.
Where a chain is given by its changes, count along the chain named. Human monoclonal antibodies against the spike receptor-binding domain (heavy:light variable regions). IC50 against pseudoviruses bearing the spike of naturally observed variants; lower = stronger; >10 µg/ml means not reached at the top dose. No active / inactive call. The stated detection limit is 0.0005 µg/ml; values near or below 0.001 µg/ml lie at the floor of the assay.

B1: BD55-5908 (protein)
chain 1: QVQLVQSGAEVKKPGSSVKVSCKASGGTFYNYAINWVRQAPGQGLEWMGRIIPTLGIPNYAQKFQGRVTITADKSTSTAYMELSSLRSEDTAVFYCATSTYESSYASSAYPLDHWGQGTLVTVSS
chain 2: DIQMTQSPSSLSASVGDRVTITCRASQSISNYLNWYQQKPGKAPKLLIYAASDLQSGVPSRFSGSGSGTDFTLTISSLQPEDFATYYCQQTYSPPRTFGQGTKVEIK
B2: BD55-5909 (protein)
chain 1: QVQLVQSGAEVKKPGSSVKVSCKASGGTFSTYAISWVRQAPGQGLEWMGRIIPMIGIPNYAQKFQGRVTITADKSTSTAYMELRSLRSEDTAVYYCAKDEGEYQLLYSYFDPWGQGTLVTVSS
chain 2: EIVMTQSPATLSVSPGERATLSCRASQFVSSNLAWYQQKPGQAPRLLIYGASTRATGIPARFSGSGSGTEFTLTISSLQSEDFAVYYCQQYNNWPPFGWTFGQGTKVEIK
B3: BD55-5923 (protein)
chain 1: EVQLVESGGGLVQPGGSLRLSCAASGITVSSNYMSWVRQAPGKGLEWVSVIYSGGSTFYADSVRGRFTISRDNSKNTLYLQMNSLRVEDTAVYYCARVQRDEAWGQGTLVTVSS
chain 2: DIQMTQSPSSLSAFVGDRVTITCQASQDIRNYLNWYQQKPGKAPKILIHDASNLETGVPSRFSGSGSGTHFTLTIRSLQPEDIATYYCQQSDNLPYTFGQGTKLEIK
B4: BD55-5927 (protein)
chain 1: EVRLVESGGGLVQPGRSLRLSCAASGFIFDDYSMHWVRQAPGKGLEWVSSINWNSGRIDYADSVKGRFTISRDNAKNSLFLQMIRLRPEDTALYYCAKPLSSGWTFSGTTDDAFEIWGQGTMVTVSS
chain 2: QSALTQPPSVSGSPGQSVTISCTGTSSDVGSFHRVSWYQQPPGTAPKLMIYEVNNRPSGVPDRFSGSKSGNTASLTISGLQAEDEADYYCSSYTITNTWVFGGGTKVTVL
B5: BD55-5931 (protein)
chain 1: EVQLVESGGGLVKPGGSLRLSCAASGFTFSHYGMNWVRQAPGKGLEWVSSISSSGSHIFYADSVEGRFTISRDNAKNSLYLQMNRLTVEDTSVFYCARCPGLGYCSPSSPLGDSWGRGTLVTVSS
chain 2: QSVLTQPPSVSGAPGQRVTISCTGSSSNIGAGYDVHWYQQLPGAAPRLLIYGNSDRPSGVPDRFSGSKSGTSASLAITGLQSEDEADYYCQSYDSSLSGPYVFGTGTKVTVL
B6: BD55-1129 (protein)
chain 1: EVQLVESGGGLVQPGRSLRLSCAASGFFFDDYAMHWVRQAPGKGLEWVSGINWSSGTIAYADSVKGRFTISRDNTKSSLYLQMNSLRDDDTALYYCARDKVAEILPLGYFDPWGQGTLVIVSS
chain 2: QSVLTQPPSASGTPGQRVTISCSGSSSKIGFNTVNWYQQLPGAAPKLLIYTNNQRPSGVPDRFSGSKSGTSASLAISGLQSEDEADYYCAAWDDRLTGWVFGGGTKLTVL
B7: BD55-5941 (protein)
chain 1: B2 chain 1 with M54G, I55V, A79V, R84S, S88F, K98R, Y109W
chain 2: B2 chain 2 with F28S
B8: BD55-5948 (protein)
chain 1: QMQLVQSGPEVKKPGTSVKVSCKASGFTFFSSAVQWVRQARGQRLEWIGWIVAGSGNTNYAQRFQERVTITRDMSTTTAYMELFSLRSEDTAVYYCAAVIPYYYQSIGSRFWGQGTLVTVSS
chain 2: DIQMTQSPSTLSASVGDRVTITCRASQNINNWLAWYQHKPGKAPKLLIYEASNLESGVPSRFSGSGSGTEFTLTISSLQPDDFATYYCQQYHRYSGGLGQGTKVEIK
B9: BD55-5955 (protein)
chain 1: EVQLVESGGGLVQPGGSLRLSCAASGLTVSRNYMCWVRQAPGKGLEWVSVIYTGGGTNYADSVKGRVTISRDNSKNIVFLQMNSLRAEDTAVYFCAWYYYDGTGYARFDYWGQGTLVTVSS
chain 2: DIQMTQSPSSLPASVGDRVTITCRASQNISSYLNWYQQQPGKAPNLLIYAASSLQSGVPSRFSGSGSGTDFTLTIRSLQPEDFATYYCQQSYSALSITFGQGTRLEIK
B10: BD55-5957 (protein)
chain 1: QVQLVQSGAEVKKPGASVKVSCKASGYTFTSYGISWVRQAPGQGLEWMGWISAYNGYTNYAQKLQGRVTMTTDTSTYTAYMELRSLRSDDTAVYYCGVTEGCSSTSCYTGYYYYGMDVWGQGTTVTVSS
chain 2: EIVLTQSPATLSLSPGERATLSCGASQNVSSTYLAWYQQKPGLAPRLLIYDASSRATGIPDRFSGSGSGTDFTLTISRLEPEDFAVYYCQQYGSSPRTFGQGTKVEIK
B11: BD55-5962 (protein)
chain 1: QVQLVQSGAEMKKPGSSVKVSCKASGGTFTSYAISWVRQAPGQGLEWMGRFIPILGIANYAQKFQDSVTLTADMSTTTAYMELSSLRYDDTAVYYCARDRYSGFDYDSVPDYWGQGTLVTVSS
chain 2: B10 chain 2 with A9G, G24R, N28S, T32S, Y37F, L43Q, D51A, Y92S, G93H, R97W
B12: BD55-5969 (protein)
chain 1: QVTLKESGPVLVKPTETLTLTCTVSGFSLSNAKMGVSWIRQPPGKALEWLAHIFSNDEKSYSTSLRSRLTISKDTSKSQVILTMTNMDPVDTATYYCARILPLGYYYYAMDVWGQGTTVTVSS
chain 2: DIQMTQSPSSLSASVGDRVTITCRASQRIGSYLNWYQQRPGKAPKLLIYEASSLQSGVPSRFSGSGSGTYFTLTISSLEPEDFATYYCQQSYSTPGYTFGQGTKLDIK

molecular target: SARS-CoV-2 Omicron BA.1 spike pseudovirus; assay: pseudovirus neutralization IC50; higher = weaker neutralization
Description: (§1)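 Single-round VSV luciferase pseudovirus mixed with antibody dilutions for 1 h and put on Huh-7 cells for about a day; IC50 from the dose curve.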

Binder | pseudovirus neutralization IC50 [µg/mL]
B1 | > 10
B2 | > 10
B3 | > 10
B4 | > 10
B5 | > 10
B6 | > 10
B7 | > 10
B8 | > 10
B9 | 0.314
B10 | 0.788
B11 | > 10
B12 | > 10

molecular target: SARS-CoV-2 Omicron BA.2 spike pseudovirus; assay: as above
Description: as §1

Binder | pseudovirus neutralization IC50 [µg/mL]
B1 | > 10
B2 | > 10
B3 | > 10
B4 | > 10
B5 | > 10
B6 | > 10
B7 | > 10
B8 | > 10
B9 | 0.304
B10 | 0.805
B11 | > 10
B12 | > 10

molecular target: SARS-CoV-2 Omicron BA.2.75 spike pseudovirus; assay: as above
Description: as §1

Binder | pseudovirus neutralization IC50 [µg/mL]
B1 | > 10
B2 | > 10
B3 | > 10
B4 | > 10
B5 | > 10
B6 | > 10
B7 | > 10
B8 | > 10
B9 | 0.23
B10 | 0.169
B11 | > 10
B12 | > 10

molecular target: SARS-CoV-2 Omicron BA.5 spike pseudovirus; assay: as above
Description: as §1

Binder | pseudovirus neutralization IC50 [µg/mL]
B1 | > 10
B2 | > 10
B3 | > 10
B4 | > 10
B5 | > 10
B6 | > 10
B7 | > 10
B8 | > 10
B9 | > 10
B10 | > 10
B11 | > 10
B12 | > 10

molecular target: SARS-CoV-2 Omicron BQ.1.1 spike pseudovirus; assay: as above
Description: as §1

Binder | pseudovirus neutralization IC50 [µg/mL]
B1 | > 10
B2 | > 10
B3 | > 10
B4 | > 10
B5 | > 10
B6 | > 10
B7 | > 10
B8 | > 10
B9 | > 10
B10 | > 10
B11 | > 10
B12 | > 10

molecular target: SARS-CoV-2 Omicron XBB spike pseudovirus; assay: as above
Description: as §1

Binder | pseudovirus neutralization IC50 [µg/mL]
B1 | > 10
B2 | > 10
B3 | > 10
B4 | > 10
B5 | > 10
B6 | > 10
B7 | > 10
B8 | > 10
B9 | > 10
B10 | > 10
B11 | > 10
B12 | > 10

molecular target: SARS-CoV-2 early D614G spike pseudovirus; assay: as above
Description: as §1

Binder | pseudovirus neutralization IC50 [µg/mL]
B1 | 0.00206
B2 | 0.108
B3 | 0.03
B4 | 0.244
B5 | > 10
B6 | 0.0942
B7 | > 10
B8 | 1.86
B9 | 0.001
B10 | 0.802
B11 | > 10
B12 | > 10
